This note sets out measurements from PubChem BioAssay AID720579 (National Center for Advancing Translational Sciences (NCATS), 2013).

This list holds what a sample rich in hits left over. Results filed as inconclusive are left out. The source made the active and inactive calls. The call rests on the fitted dose curve; tested in A549 cells.

The experiment is described as follows: qHTS for Stage-Specific Inhibitors of Vaccinia Orthopoxvirus: mCherry Reporter Primary qHTS. Further: nearly all actives have a fitted effect of over 35% in size. Particulars: Vaccinia virus mCherry reporter infection, fluorescence; at 36.5 µM (top of the series). (Quantitative high-throughput screening tests each substance at several concentrations.)
In the case of `CCCCc1oc2ccccc2c1C(=O)c1cc(I)c(OCCN(CC)CC)c(I)c1`, the compound was called inactive.
